Measurements from patent US20190330275A1, “NOVEL MUTANT OF a-CONOTOXIN PEPTIDE TxID, PHARMACEUTICAL COMPOSITION AND USE THEREOF” (priority 2016, published 2019).

Biological target: rat α6/α3β4 nicotinic acetylcholine receptor (rat) (UniProt P12392)
Experiment: cell-based or functional assay

In the case of TxID[S9K], the IC50 (half-blocking dose), ACh-evoked current is reported as greater than 10 µM, the IC50 (half-blocking dose), ACh-evoked current, re-assay is reported as greater than 10 µM and the block of ACh-evoked current at 10 µM peptide (fraction of the control current) is reported as less than 0.25.

TxID[S9E] showed an IC50 (half-blocking dose), ACh-evoked current greater than 10 µM and an IC50 (half-blocking dose), ACh-evoked current, re-assay greater than 10 µM.

TxID[S9D] showed an IC50 (half-blocking dose), ACh-evoked current greater than 10 µM and an IC50 (half-blocking dose), ACh-evoked current, re-assay greater than 10 µM.
